Pooled drug test results. Numbers come from NIAID ChemDB, via PubChem.

Shared fields: tests on isolated targets; agent: HIV-1; target: Protease

Blank or dashed fields: not listed here. ICn is the concentration giving n% inhibition. Neighbouring rows are from separate reports.

SMILES | method | read-out | value
O=C(N[C@@H](Cn1cccc1)C(=O)N[C@@H](Cc1ccccc1)[C@@H]1O[C@@H]1[C@H](Cc1ccccc1)NC(=O)[C@H](Cn1cccc1)NC(=O)OCc1ccccc1)OCc1ccccc1 | fluorescence | IC50 | 6.81 µg/mL
CC(C)CN(C[C@@H](O)[C@H](Cc1ccccc1)NC(=O)OCc1ccccc1)S(=O)(=O)NCCOCc1ccccc1 |  | IC50 | >10 µM
CCCN1C(=O)N(CCC)N(C(=O)C(C)C)C[C@@H](O)[C@H]1Cc1ccccc1 | fluorescence | IC50 | 0.011 µM
CC[C@@H](C)[C@H](NC(=O)[C@@H]1CCCN1C(=O)[C@@H](O)[C@H](CC1CCCCC1)NC(=O)[C@H](CC(N)=O)NC(=O)c1ccco1)C(=O)N[C@H](C(N)=O)C(C)C |  | IC50 | <5 µM
O=C(N[C@@H](Cn1ccnc1)C(=O)N[C@@H](Cc1ccccc1)[C@@H]1O[C@@H]1[C@H](Cc1ccccc1)NC(=O)[C@H](Cn1ccnc1)NC(=O)OCc1ccccc1)OCc1ccccc1 | fluorescence | IC50 | 0.0695 µg/mL
CC(C)(C)NC(=O)[C@@H]1CSCN1C(=O)[C@@H](O)[C@H](Cc1ccccc1)NC(=O)[C@H](CS(C)(=O)=O)NC(=O)c1ccccc1-c1ccccc1 |  | IC50 | <5 µM
CC(C)[C@H](NC(=O)[C@H](Cc1ccc2ccccc2c1)CS(=O)(=O)C(C)(C)C)C(=O)NCP(N)(=O)CNC(=O)[C@@H](NC(=O)[C@H](Cc1cccc2ccccc12)CS(=O)(=O)C(C)(C)C)C(C)C |  | IC50 | 0.0055 µM
CC(C)(C)S(=O)(=O)C[C@@H](Cc1cccc2ccccc12)C(=O)NCc1ccc2c(c1)[C@H](O)[C@@H](O)c1cc(CNC(=O)[C@H](Cc3cccc4ccccc34)CS(=O)(=O)C(C)(C)C)ccc1C2=O |  | Ki | 2 µM
CC[C@@H](C)[C@H](NC(=O)[C@@H]1CCCN1C(=O)[C@@H](O)[C@H](CC1CCCCC1)NC(=O)[C@H](CC(N)=O)NC(=O)[C@@H]1Cc2ccccc2CN1)C(=O)N[C@H](C(N)=O)C(C)C |  | IC50 | <5 µM
CC(C)[C@H](NC(=O)[C@H](Cc1ccc2ccccc2c1)CS(=O)(=O)C(C)(C)C)C(=O)N[C@@H](Cc1ccccc1)P(=O)(O)[C@H](Cc1ccccc1)NC(=O)[C@@H](NC(=O)[C@H](Cc1cccc2ccccc12)CS(=O)(=O)C(C)(C)C)C(C)C |  | IC50 | 0.0005 µM
O=C(CO)N1C[C@@H](O)[C@@H](Cc2ccccc2)N(Cc2ccc(O)cc2)C(=O)N1Cc1ccc(O)cc1 | fluorescence | IC50 | 0.0066 µM
CC(C)CN(C[C@@H](O)[C@H](Cc1ccccc1)NC(=O)OCc1ccccc1)S(=O)(=O)N1CCN(C)CC1 |  | IC50 | >0.1 µM
CCC(Cc1cccc(NS(=O)(=O)c2ccc(C#N)cn2)c1)c1cc(O)c(C(c2ccccc2)C2CC2)c(=O)o1 | fluorescence | IC50 | 0.045 µM
CC(C)[C@H](NC(=O)[C@H](Cc1ccc2ccccc2c1)CS(=O)(=O)C(C)(C)C)C(=O)NCP(=O)(CNC(=O)[C@@H](NC(=O)[C@H](Cc1cccc2ccccc12)CS(=O)(=O)C(C)(C)C)C(C)C)NN |  | IC50 | 0.0085 µM
COc1ccnc2[nH]cc(C(=O)C(=O)N3CCN(C(=O)c4ccccc4)C[C@H]3C)c12 |  | IC50 | >20 µM
CC(C)(C)C(=O)OC[C@H]1O[C@@H](Oc2ccccc2)[C@H](O)[C@@H](OC(=O)C(C)(C)C)[C@@H]1O |  | IC50 | >100 µM
CNS(=O)(=O)N(CC(C)C)C[C@@H](O)[C@H](Cc1ccccc1)NC(=O)OCc1ccccc1 |  | IC50 | >0.1 µM
CC[C@H](NC(=O)N(C)Cc1ccccn1)C(=O)N[C@@H](Cc1ccc2ccccc2c1)[C@@H]1O[C@@H]1[C@H](Cc1ccc2ccccc2c1)NC(=O)[C@H](CC)NC(=O)N(C)Cc1ccccn1 | fluorescence | IC50 | >1000 µg/mL
CC[C@H](C)[C@H](NC(=O)[C@@H]1CCCN1C(=O)[C@@H](O)[C@H](Cc1ccccc1)NC(=O)[C@H](CO)NC(=O)Cc1ccccc1)C(=O)N[C@H](C(N)=O)C(C)C |  | IC50 | <5 µM
CC(C)CN(C[C@@H](O)[C@H](Cc1ccccc1)NC(=O)OCc1ccccc1)S(=O)(=O)N1CCCC1 |  | IC50 | >0.1 µM
C#CC[C@H](NC(=O)COc1cccc2ccccc12)C(=O)N[C@@H](Cc1ccccc1)[C@H](O)C(=O)N1CSC[C@H]1C(=O)NC(C)(C)C |  | IC50 | <0.05 µM
CCC(Cc1cccc(NS(=O)(=O)c2ccc([N+](=O)[O-])cc2)c1)c1cc(O)c(C(c2ccccc2)C2CC2)c(=O)o1 | fluorescence | IC50 | 2.22 µM
COC[C@@H]1[C@@H](OC)[C@H](OC)[C@H](COC)N1C[C@@H](O)[C@H](Cc1ccccc1)NC(=O)OCc1ccccc1 | fluorescence | Ki | 20 µM
CCC(Cc1cccc(NS(=O)(=O)c2ccc([N+](=O)[O-])cn2)c1)c1cc(O)c(C(c2ccccc2)C2CC2)c(=O)o1 | fluorescence | IC50 | 0.073 µM
CO[C@H]1[C@H](OCc2ccccc2)[C@@H](O)[C@H](Oc2ccccc2)O[C@@H]1CNC(=O)[C@@H](NC(=O)OC(C)(C)C)C(C)C |  | IC50 | >100 µM
CC(C)[C@H](NC(=O)[C@H](Cc1ccc2ccccc2c1)CS(=O)(=O)C(C)(C)C)C(=O)NCP(=O)(O)CNC(=O)[C@@H](NC(=O)[C@H](Cc1cccc2ccccc12)CS(=O)(=O)C(C)(C)C)C(C)C |  | IC50 | 0.0011 µM
CCC(Cc1cccc(NS(=O)(=O)c2ccc(N)cn2)c1)c1cc(O)c(C(c2ccccc2)C2CC2)c(=O)o1 | fluorescence | IC50 | 0.16 µM

4 of the rows above, restated:

SMILES | method | read-out | value
CC[C@@H](C)[C@H](NC(=O)[C@@H]1CCCN1C(=O)[C@@H](O)[C@H](CC1CCCCC1)NC(=O)[C@H](CC(N)=O)NC(=O)[C@@H]1Cc2ccccc2CN1)C(=O)N[C@H](C(N)=O)C(C)C |  | IC50 | <5 µM
CC[C@H](NC(=O)N(C)Cc1ccccn1)C(=O)N[C@@H](Cc1ccc2ccccc2c1)[C@@H]1O[C@@H]1[C@H](Cc1ccc2ccccc2c1)NC(=O)[C@H](CC)NC(=O)N(C)Cc1ccccn1 | fluorescence | IC50 | >1000 µg/mL
CC(C)[C@H](NC(=O)[C@H](Cc1ccc2ccccc2c1)CS(=O)(=O)C(C)(C)C)C(=O)NCP(N)(=O)CNC(=O)[C@@H](NC(=O)[C@H](Cc1cccc2ccccc12)CS(=O)(=O)C(C)(C)C)C(C)C |  | IC50 | 0.0055 µM
CC(C)CN(C[C@@H](O)[C@H](Cc1ccccc1)NC(=O)OCc1ccccc1)S(=O)(=O)N1CCN(C)CC1 |  | IC50 | >0.1 µM